{"source": "patent US20140073631A1", "about": "(priority 2012, published 2014)", "assay_type_in_all_cases": "cell-based", "key": {"[1]": {"tested_on": "HIV-1 ROJO (low passage clinical strain)", "test": "PBMC assay, virus production by reverse transcriptase activity", "conditions": "TC50/IC50, PBMC"}, "HIV-1": {"tested_on": "HIV-1", "test": "CEM-SS microtiter antiviral XTT cytoprotection assay"}, "[2]": {"tested_on": "Flu A H1N1 New Caledonia/20/99", "test": "Anti-influenza testing, visual and NR assays", "conditions": "MDCK"}, "[3]": {"tested_on": "Flu A H3N2 California/7/04", "test": "Anti-influenza testing, visual and NR assays", "conditions": "MDCK"}}}
{"smiles": "Cc1cn([C@H]2C[C@H](N=[N+]=[N-])[C@@H](CO)O2)c(=O)[nH]c1=O", "note": "[AZT, reference compound]", "values": [{"measurement": "TI", "setting": "[1]", "value": "TI = >40.0"}]}
{"smiles": "N=C(NCCCCCCNC(=N)NC(=N)N1CCN(c2cc3c(cc2F)c(=O)c(C(=O)O)cn3C2CC2)CC1)NC(=N)N1CCN(c2cc3c(cc2F)c(=O)c(C(=O)O)cn3C2CC2)CC1", "note": "[BVS-10A]", "values": [{"measurement": "therapeutic index", "setting": "HIV-1; CEM-SS cells", "value": "> 10"}, {"measurement": "SI", "setting": "HIV-1; CEM-SS, plate head", "value": "SI: >6.01"}, {"measurement": "ANTIVIRAL INDEX (AI) 25%", "setting": "HIV-1; TC25/IC25, CEM-SS", "value": ">8.33"}, {"measurement": "ANTIVIRAL INDEX (AI) 50%", "setting": "HIV-1; TC50/IC50, CEM-SS", "value": ">6.01"}, {"measurement": "ANTIVIRAL INDEX (AI) 95%", "setting": "HIV-1; TC95/IC95, CEM-SS", "value": ">3.34"}, {"measurement": "TI", "setting": "[1]", "value": "approximately 50"}, {"measurement": "TI", "setting": "[1]; listed as BVS 10A", "value": "TI = >39.4"}]}
{"smiles": "O=C1C2C=CC=C([N+](=O)[O-])C2(C(=O)O)C(c2ccccc2)N1c1ccc(O)cc1", "note": "(stereo not shown) [BVS-45]", "values": [{"measurement": "Si", "setting": "[2]; Virus Yield assay, trial 2", "value": 0}, {"measurement": "Si", "setting": "[2]; Visual assay, trial 1", "value": ">580"}, {"measurement": "Si", "setting": "[2]; Visual-CONF assay, trial 2", "value": ">560"}, {"measurement": "Si", "setting": "[3]; Neutral Red assay, trial 1", "value": 340}, {"measurement": "Si", "setting": "[3]; Virus Yield assay, trial 2", "value": ">667"}, {"measurement": "Si", "setting": "[3]; Visual assay, trial 1", "value": ">1786"}, {"measurement": "Si", "setting": "[3]; Visual-CONF assay, trial 2", "value": ">1786"}]}
{"smiles": "N#CNC(=N)NC1C2CC3CCC1(NC(=N)NC#N)CC3C2", "note": "(stereo not shown) [BVS-47]", "values": [{"measurement": "Si", "setting": "[2]; Neutral Red assay, trial 1", "value": ">280"}]}
